Compound potency records, mixed from different reports. Data source: NIAID ChemDB in PubChem.

Common to all: tests in culture; agent: Hepatitis C virus; read by: replicon; measure: EC50

An empty or dashed field is not shown. a–b is a range or a potency band. Lines come from different laboratories, so protocols vary. ECn: concentration that inhibits the pathogen or its effect by n%.

SMILES,strain,cell line,value
C=C[C@@H]1C[C@]1(NC(=O)[C@@H]1C[C@@H](Oc2cc(-c3ccccc3)nc3cc(OC)ccc23)CN1C(=O)[C@@H](NC(=O)OC(C)(C)C)C(C)(C)C)C(=O)NS(=O)(=O)C1CCCCC1,1b,Huh7,<0.5 µM
C[C@@H](NC(=O)C(c1ccccc1)c1ccccc1)C(=O)Nc1ccc(C2SC(=Nc3ccc(N4CCOCC4)cc3)N(Cc3ccccn3)C2=O)cc1,,Huh7,<0.1 µM
FC(F)(F)c1ccccc1-n1ncc2c(NCCc3c[nH]c4ccccc34)ncnc21,,HUH 9B,1–10 µM
COc1ccc([N+](=O)[O-])cc1Cn1c(C(=O)O)c(-c2ccc[nH]c2=O)c2c3occc3ccc21,,,>1.5 µM
O=C(O)/C=C/c1ccc(NC(=O)C2(NC(=O)c3ccc4c(C5CCCCC5)c5n(c4c3)C[C@@H](O)[C@@H](O)c3ncccc3-5)CCCC2)cc1,,Huh7,0.01–1 µM
NC(=O)c1cnc(F)c(Cn2c(C(=O)O)c(-c3ccc[nH]c3=O)c3c4c(c(F)cc32)CCO4)c1,,,<0.5 µM
O=C(Nc1ccc(C2SC(=Nc3cccc(OC(F)(F)F)c3)N(Cc3ccco3)C2=O)cc1)[C@H]1CCCN1C(=O)OCc1ccccc1,,Huh7,0.1–1 µM
CC[C@@H]1C[C@]1(NC(=O)[C@@H]1C[C@@H](Oc2cc(-c3ccccc3)nc3cc(OC)ccc23)CN1C(=O)[C@@H](NC(=O)OCCF)C(C)C)C(=O)NS(=O)(=O)C1CC1,1b,Huh7,<0.5 µM
C[C@@H](NC(=O)Cc1ccccc1)C(=O)Nc1ccc(C2SC(=Nc3ccc(N4CCOCC4)cc3)N(Cc3ccccn3)C2=O)cc1,,Huh7,<0.1 µM
Cc1ccc(Nc2ncnc3c2cnn3Cc2ccccc2)c(C)c1,,HUH 9B,1–10 µM
O=C(Nc1ccc(C2SC(=Nc3cccc(F)c3)N(Cc3ccc(OC(F)(F)F)cc3)C2=O)cc1)[C@H]1CCCN1C(=O)OCc1ccccc1,,Huh7,1–5 µM
C=C[C@@H]1C[C@]1(NC(=O)[C@@H]1C[C@@H](Oc2cc(-c3ccccc3)nc3cc(OC)ccc23)CN1C(=O)[C@@H](NC(=O)OCCF)C(C)(C)C)C(=O)NS(=O)(=O)C1CC1,1b,Huh7,<0.05 µM
Cc1cccc(Cn2c(C(=O)O)c(-c3ccc[nH]c3=O)c3c4occ(C)c4ccc32)c1F,,,>1.5 µM
COc1ccc(Cl)cc1Nc1ncnc2c1cnn2-c1ccc(F)cc1F,,HUH 9B,>10 µM
O=C(C1=Cc2ccccc2-c2c(C3CCCCC3)c3ccc(C(=O)N4CCOCC4)cc3n2C1)N1CCOCC1,,Huh7,1–10 µM
Cc1ccc(-n2ncc3c(NC(=O)Nc4cccc(C(F)(F)F)c4)ncnc32)c(C)c1,,HUH 9B,<1 µM
CC1(C)COc2c1ccc1c2c(-c2ccc[nH]c2=O)c(C(=O)O)n1Cc1cc2ccccc2nc1Cl,,,<0.5 µM
Cc1ccc(-n2ncc3c(Nc4ccc(S(N)(=O)=O)cc4)ncnc32)c(C)c1,,HUH 9B,<1 µM
CC(C)(C)C(=O)OCn1cccc(-c2c(C(=O)O)n(Cc3cc4ccccc4nc3Cl)c3cc(F)c4ccoc4c23)c1=O,,,<0.5 µM
O=C(O)c1ccc2c(C3CCCCC3)c3n(c2c1)CC=Cc1cc(OCc2ccccc2)ccc1-3,,Huh7,0.01–1 µM
C=C[C@@H]1C[C@]1(NC(=O)[C@@H]1C[C@@H](Oc2cc(-c3ccccc3)nc3cc(OC)ccc23)CN1C(=O)[C@@H](NC(=O)N(CCC(F)(F)F)CC1CC1)C(C)(C)C)C(=O)NS(=O)(=O)C1CC1,1b,Huh7,<0.5 µM
NC(=O)c1cc(Cn2c(C(=O)NS(=O)(=O)C3CC3)c(-c3ccc[nH]c3=O)c3c4c(c(F)cc32)CCO4)cs1,,,<0.5 µM
COc1ccc2c(O[C@@H]3C[C@@H](C(=O)NC4(C(=O)NS(=O)(=O)C5CC5)CCC45CC5)N(C(=O)[C@@H](NC(=O)OC(C)(C)C)C(C)(C)C)C3)cc(-c3ccccc3)nc2c1,1b,Huh7,<5 µM
Cc1ccc(NC(=O)Nc2ncnc3c2cnn3-c2ccc(C)cc2C)cc1,,HUH 9B,<1 µM
CCc1coc2c1ccc1c2c(-c2ccc[nH]c2=O)c(C(=O)NS(C)(=O)=O)n1Cc1ccccc1F,,,>1.5 µM
COC(=O)/C=C/c1ccc2nc(C3(NC(=O)c4ccc5c(C6CCCCC6)c6n(c5c4)CC(=O)Nc4ccccc4-6)CCCC3)[nH]c2c1,,Huh7,0.01–1 µM
CO[C@H](C(=O)N1CCC[C@@H]1C(=O)Nc1ccc(C2SC(=Nc3ccc(N4CCOCC4)cc3)N(Cc3ccccn3)C2=O)cc1)c1ccccc1,,Huh7,<0.1 µM
Cc1cc2ccc3c(c(-c4ccc[nH]c4=O)c(C(=O)NS(C)(=O)=O)n3Cc3cc(F)ccc3F)c2o1,,,>1.5 µM
COc1cccc(CN2C(=O)C(c3ccc(NC(=O)C4CCCN4C(=O)OCc4ccccc4)cc3)SC2=Nc2cccc(F)c2)c1,,Huh7,0.1–1 µM
O=C(O)c1ccc2c(C3CCCCC3)c3n(c2c1)CC(N1CCOCC1)Cc1cccnc1-3,,Huh7,0.01–1 µM
O=C(Nc1ccc(C2SC(=Nc3cccc(F)c3)N(Cc3cccnc3)C2=O)cc1)[C@H]1CCCN1C(=O)OCc1ccccc1,,Huh7,<0.1 µM
Nc1cc(Cn2c(C(=O)O)c(-c3ccccc3F)c3c4ccccc4ccc32)ncn1,,,>10 µM
C[C@@H](NC(=O)OCc1ccccc1)C(=O)Nc1ccc(C2SC(=Nc3cccc(F)c3)N(Cc3ccoc3)C2=O)cc1,,Huh7,0.1–1 µM
COC(=O)C1=Cc2cccnc2-c2c(C3CCCCC3)c3ccc(C(=O)OC)cc3n2C1,,Huh7,1–10 µM
C=C[C@@H]1C[C@]1(NC(=O)[C@@H]1C[C@@H](Oc2cc(-c3ccccc3)nc3cc(OC)ccc23)CN1C(=O)[C@@H](NC(=O)OC(C)(C)C)C(C)(C)C)C(=O)NS(=O)C(C)(C)C,1b,Huh7,<5 µM
Cc1ccc(-n2ncc3c(NC(=O)Nc4cccc(Cl)c4Cl)ncnc32)c(C)c1,,HUH 9B,1–10 µM
O=C(NS(=O)(=O)Cc1ccccc1)c1ccc2c(C3CCCCC3)c3n(c2c1)CC=Cc1ncccc1-3,,Huh7,1–10 µM
C[C@@H](NC(=O)OCc1ccccc1)C(=O)Nc1ccc(C2SC(=Nc3cccnc3)N(Cc3cccc(F)c3)C2=O)cc1,,Huh7,<0.1 µM
Cc1ccc(-n2ncc3c(NC(=O)Nc4ccc(OCc5ccccn5)cc4)ncnc32)c(C)c1,,HUH 9B,<1 µM

A second listing of 2 rows from above:

| SMILES | strain | cell line | value |
|---|---|---|---|
| C[C@@H](NC(=O)OCc1ccccc1)C(=O)Nc1ccc(C2SC(=Nc3cccc(F)c3)N(Cc3ccoc3)C2=O)cc1 |  | Huh7 | 0.1–1 µM |
| COc1cccc(CN2C(=O)C(c3ccc(NC(=O)C4CCCN4C(=O)OCc4ccccc4)cc3)SC2=Nc2cccc(F)c2)c1 |  | Huh7 | 0.1–1 µM |